Experimental data reported in patent publication US20240016923A1 (UNIVERSITY OF MARYLAND COLLEGE PARK, published 2024).

Target: T1, secreted E1E2 with c-Fos/c-Jun leucine zipper scaffold (sE1E2.LZ) (Hepatitis C virus H77; human, limits assumed)
T1 construct: It is written here as the two chains expected after furin cleavage
T1 chain 1: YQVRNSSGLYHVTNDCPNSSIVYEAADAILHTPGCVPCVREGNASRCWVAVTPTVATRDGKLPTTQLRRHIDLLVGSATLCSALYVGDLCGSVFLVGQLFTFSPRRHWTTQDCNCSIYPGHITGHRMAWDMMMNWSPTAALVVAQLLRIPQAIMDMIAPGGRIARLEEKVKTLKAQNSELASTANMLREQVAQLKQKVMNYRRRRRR
T1 chain 2: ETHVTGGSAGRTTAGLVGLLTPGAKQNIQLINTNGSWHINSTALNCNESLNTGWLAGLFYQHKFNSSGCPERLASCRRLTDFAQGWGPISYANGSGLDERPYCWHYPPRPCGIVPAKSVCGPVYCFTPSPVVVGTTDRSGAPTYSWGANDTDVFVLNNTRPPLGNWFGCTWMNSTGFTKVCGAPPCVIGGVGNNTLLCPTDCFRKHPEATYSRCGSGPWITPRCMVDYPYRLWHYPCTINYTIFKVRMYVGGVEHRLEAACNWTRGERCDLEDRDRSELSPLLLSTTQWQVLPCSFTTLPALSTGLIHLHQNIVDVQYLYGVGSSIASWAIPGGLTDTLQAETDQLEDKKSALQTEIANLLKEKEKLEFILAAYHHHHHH
Experiment: dose-dependent ELISA, antigen captured by GNA lectin

B1: HC84.26 (antibody, V domains shown)
VH: QVQLVQSGAEVKKPGSSVKVSCEASGGTLSNYVITWVRQAPGQGLEWMGGFIPTFRTAMYAQGFQGRVTITADESTSIAYMELTNLRSEDTAVYYCARGPLSRGYYDYWGQGTLVTVSS
VL: SYVLTQPPSVSVAPGKTARITCGGNNIGSKSVHWYQQKPGQAPVLVVYDDSDRPSGIPERFSGSNSGNTATLTISRVEAGDEADYYCQVWDSSSVVFGGGTKLTVL
Kd: 2.6 nM
